One assay has as its target SseK1 (Salmonella enterica, UniProt A0A0H3NK84). Briefly: UDP-Glo glycosyltransferase assay. To be noted: co-substrate UDP-GlcNAc, pH 7.5, 4 mM MnCl2.
Assay [1] has as its target T1, SseK2 (Salmonella enterica, UniProt P0DUJ8). Briefly: UDP-Glo glycosyltransferase assay. Particulars: co-substrate UDP-GlcNAc, pH 7.5, 4 mM MnCl2.
For assay [2], the target named is T1, SseK2. The assay is described as follows: crystal structure. To be noted: co-crystallized with 5 mM UDP and 5 mM MnCl2.
In a further assay the target is NleB1 (Escherichia coli, UniProt Q8XBX8). Briefly: in vitro glycosylation, anti-Arg-GlcNAc Western blot. To be noted: 1 mM UDP-GlcNAc, 10 mM MnCl2, pH 7.4, room temperature; acceptor FADD, TRADD or GAPDH.

Take `N=C(N)NCCC[C@H](N)C(=O)O`: the Km result on SseK1 was “enzyme kinetics using the L-arginine substrate and the purified recombinant SseK1 and SseK2”; on SseK2 [1], “enzyme kinetics using the L-arginine substrate and the purified recombinant SseK1 and SseK2”.

As to `O=c1ccn([C@@H]2O[C@H](COP(=O)(O)OP(=O)(O)O)[C@@H](O)[C@H]2O)c(=O)[nH]1`, the crystal structure entry at SseK2 [2] was “SseK2 was solved both in its unliganded form and in complex with UDP and UDP-GlcNAc”.

Consider `CC(=O)N[C@H]1[C@@H](OP(=O)(O)OP(=O)(O)OC[C@H]2O[C@@H](n3ccc(=O)[nH]c3=O)[C@H](O)[C@@H]2O)O[C@H](CO)[C@@H](O)[C@@H]1O`, for which the “in vitro glycosylation, anti-Arg-GlcNAc Western blot” value on NleB1 was “WT NleB1, SseK1, and SseK2 glycosylated FADD”.

The values are drawn from paper PMC6191443, “Structural basis for arginine glycosylation of host substrates by bacterial effector proteins” (2018).
